Chains of the proteins cited; added tags and fusions are not shown. Residues count along the entry.
UniProt P02716, 25-520 limits assumed: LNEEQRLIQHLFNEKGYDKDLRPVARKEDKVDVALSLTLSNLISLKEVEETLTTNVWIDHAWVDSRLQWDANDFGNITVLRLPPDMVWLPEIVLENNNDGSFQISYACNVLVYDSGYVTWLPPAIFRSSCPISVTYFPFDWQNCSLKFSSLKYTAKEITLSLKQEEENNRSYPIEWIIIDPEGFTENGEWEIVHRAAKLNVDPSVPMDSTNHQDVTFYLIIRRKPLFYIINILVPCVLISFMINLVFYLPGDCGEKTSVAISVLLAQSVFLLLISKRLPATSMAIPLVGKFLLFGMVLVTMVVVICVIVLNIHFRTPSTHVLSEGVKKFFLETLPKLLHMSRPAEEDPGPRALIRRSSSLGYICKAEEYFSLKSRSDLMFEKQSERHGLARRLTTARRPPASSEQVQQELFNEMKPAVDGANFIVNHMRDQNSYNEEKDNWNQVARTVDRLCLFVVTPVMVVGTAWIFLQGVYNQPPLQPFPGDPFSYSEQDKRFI
UniProt P04756, 21-457 limits assumed: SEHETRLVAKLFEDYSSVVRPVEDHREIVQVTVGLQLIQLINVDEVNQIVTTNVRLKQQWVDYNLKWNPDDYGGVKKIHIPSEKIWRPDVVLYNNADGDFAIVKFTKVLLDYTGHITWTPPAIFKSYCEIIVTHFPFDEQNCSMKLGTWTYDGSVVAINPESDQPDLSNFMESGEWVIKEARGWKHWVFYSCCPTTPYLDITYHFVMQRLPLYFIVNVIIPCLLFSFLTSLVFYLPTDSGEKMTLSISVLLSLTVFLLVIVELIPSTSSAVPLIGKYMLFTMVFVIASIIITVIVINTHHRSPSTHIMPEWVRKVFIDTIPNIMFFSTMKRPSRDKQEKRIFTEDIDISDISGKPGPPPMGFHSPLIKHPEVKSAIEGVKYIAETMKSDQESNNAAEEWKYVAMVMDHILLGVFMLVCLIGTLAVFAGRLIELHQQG
UniProt P20782, 21-493 limits assumed: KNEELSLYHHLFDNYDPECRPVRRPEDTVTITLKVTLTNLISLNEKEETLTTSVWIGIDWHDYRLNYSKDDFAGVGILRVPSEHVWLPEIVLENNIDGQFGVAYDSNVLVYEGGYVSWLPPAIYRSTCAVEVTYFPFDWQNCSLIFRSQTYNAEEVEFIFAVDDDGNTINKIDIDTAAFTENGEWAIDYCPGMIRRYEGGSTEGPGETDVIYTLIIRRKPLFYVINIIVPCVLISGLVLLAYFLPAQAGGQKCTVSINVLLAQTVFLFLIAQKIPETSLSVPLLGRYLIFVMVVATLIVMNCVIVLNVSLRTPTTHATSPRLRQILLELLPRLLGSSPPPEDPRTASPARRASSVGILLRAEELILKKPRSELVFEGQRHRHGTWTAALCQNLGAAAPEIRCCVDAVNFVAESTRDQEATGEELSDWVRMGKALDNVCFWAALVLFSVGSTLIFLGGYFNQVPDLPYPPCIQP
UniProt P09690, 24-501 partner limits assumed: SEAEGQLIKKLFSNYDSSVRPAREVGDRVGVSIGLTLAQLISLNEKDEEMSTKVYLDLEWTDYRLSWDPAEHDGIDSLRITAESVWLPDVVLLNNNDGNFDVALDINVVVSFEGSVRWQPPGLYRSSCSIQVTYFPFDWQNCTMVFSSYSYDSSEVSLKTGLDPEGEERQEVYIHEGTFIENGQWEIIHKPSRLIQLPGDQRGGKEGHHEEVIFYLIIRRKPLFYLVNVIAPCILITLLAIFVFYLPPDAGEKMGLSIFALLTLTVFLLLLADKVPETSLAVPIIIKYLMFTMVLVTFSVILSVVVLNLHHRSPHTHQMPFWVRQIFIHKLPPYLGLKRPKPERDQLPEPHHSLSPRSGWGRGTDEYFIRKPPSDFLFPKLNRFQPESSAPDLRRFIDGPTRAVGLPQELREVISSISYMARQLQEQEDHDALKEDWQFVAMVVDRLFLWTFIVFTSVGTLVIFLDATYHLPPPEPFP

According to USRE39240E1 (priority 1993, dated 2006):

Target: acetylcholine receptor (Mus musculus, UniProt P02716+P04756+P20782)
Assay: binding to and inhibition of the acetylcholine receptor
Settings: thereby causing paralysis and thereafter death

Substance: H-Gly-Cys-Cys-Gly-Ser-Tyr-Pro-Asn-Ala-Ala-Cys-His-Pro-Cys-Ser-Cys-Lys-Asp-Arg-4Hyp-Ser-Tyr-Cys-Gly-Gln-NH2
- effect on the acetylcholine receptor: binds to and inhibits the function of the acetylcholine receptor
